Reference: ChEMBL document CHEMBL1121863
Activity calls are given as the source filed them. The calls are words filed in the database; no cut-off is given here.

Tests used:
[1] = test system: Leishmania donovani; assay: In vitro inhibitory activity against Leishmania donovani; Inactive
[2] = test system: Escherichia coli; assay: Inhibition of Escherichia coli threonine synthase expressed as inactivation constant; d: indicates competitive inhibitor

CCSCC(COC(C)=O)OC(COC(C)=O)n1cnc2c(N)ncnc21 (configuration not stated)
Activity [1]: inactive

N[C@@H](CSCP(=O)(O)O)C(=O)O
K inact [2]: d

CC(=O)OCC(CO)OC(COC(C)=O)n1cnc2c(F)nc(N)nc21 (configuration not stated)
Activity [1]: inactive

CC(=O)OCC(CCl)OC(COC(C)=O)n1cnc2c(N)ncnc21 (configuration not stated)
Activity [1]: inactive

CCC(COC(C)=O)OC(COC(C)=O)n1cnc2c(N)ncnc21 (configuration not stated)
Activity [1]: inactive

CC(=O)OCC(CO)OC(COC(C)=O)n1cnc2c(N)nc(N)nc21 (configuration not stated)
Activity [1]: inactive

CCSCC(CO)OC(CO)n1cnc2c(N)ncnc21 (configuration not stated)
Activity [1]: inactive
